Reference: BindingDB's records for doi:10.1111/j.1747-0285.2007.00617.x (Burnham Institute For Medical Research, 2008)

Molecular target: T1, Lethal factor (Bacillus anthracis, UniProt P15917)
T1 sequence (P15917 whole entry): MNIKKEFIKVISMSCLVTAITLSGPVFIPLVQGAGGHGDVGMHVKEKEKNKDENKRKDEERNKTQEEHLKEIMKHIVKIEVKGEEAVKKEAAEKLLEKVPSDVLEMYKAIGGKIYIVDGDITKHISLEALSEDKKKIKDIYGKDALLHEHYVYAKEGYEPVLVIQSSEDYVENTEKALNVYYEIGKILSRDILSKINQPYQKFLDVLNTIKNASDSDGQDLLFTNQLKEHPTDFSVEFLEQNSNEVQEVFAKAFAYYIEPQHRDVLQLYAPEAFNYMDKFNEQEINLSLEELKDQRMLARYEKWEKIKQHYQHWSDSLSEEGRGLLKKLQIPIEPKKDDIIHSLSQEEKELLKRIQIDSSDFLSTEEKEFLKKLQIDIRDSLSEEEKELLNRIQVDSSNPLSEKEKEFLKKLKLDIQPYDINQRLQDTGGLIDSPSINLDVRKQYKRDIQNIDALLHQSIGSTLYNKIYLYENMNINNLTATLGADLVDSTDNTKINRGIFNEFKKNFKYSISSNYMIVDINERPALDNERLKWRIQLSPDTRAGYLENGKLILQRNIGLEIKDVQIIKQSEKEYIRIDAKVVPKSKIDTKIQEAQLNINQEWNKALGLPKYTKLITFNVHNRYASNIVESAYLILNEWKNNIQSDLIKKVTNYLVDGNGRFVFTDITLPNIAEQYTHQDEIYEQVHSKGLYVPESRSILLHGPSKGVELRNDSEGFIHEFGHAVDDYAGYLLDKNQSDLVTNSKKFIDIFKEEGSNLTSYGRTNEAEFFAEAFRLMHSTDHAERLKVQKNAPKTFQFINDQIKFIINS
Settings: pH 7.4; 25 °C

**Q.** Which IC50 does the source give for `O=C(O)CN1C(=O)/C(=C/c2cc(-c3ccc(Cl)cc3)on2)SC1=S` [2-[(5Z)-5-{[5-(4-chlorophenyl)-1,2-oxazol-3-yl]methylidene}-4-oxo-2-sulfanylidene-1,3-thiazolidin-3-yl]acetic acid] here?
**A.** 5.2 µM
